Assay results taken from US20260069689A1, “ANTI-SARS-COV-2-SPIKE GLYCOPROTEIN ANTIBODIES AND ANTIGEN-BINDING FRAGMENTS” (Regeneron, published 2026).

B1: mAb14234 (antibody, V domains shown)
VH: QVQLVESGGGVVQPGRSLRLSCAASGFTFSSYGIHWVRQAPGKGLEWVAIIWYDGSEKYYADSVKGRFTISRDNSKNTLFLQMNSLEAEDTAVYYCARGPDLLTGYYNYFYYGMDVWGQGTTVTVSS
VL: QSVLTQPPSVSGAPGQRVTISCTGSSSNIGIGYDVHWYQQLPGTVPKLLIYGNTNRPSGVPDRFSGSKSGTSASLAITGLQAEDEADYYCQSYDSSLSSYVFGTGTKVTVLG
B2: mAb14249 (antibody, V domains shown)
VH: QVQLVQSGAEVKKPGASVKVSCKASGYTFTGYYMHWVRQAPGQGLEWMGRINPYSGGTNYAQKFQGRVTMTRDTSISTAYMELSRLRSDDTAVYYCASGFEPHDYGDPNLPPWGQGTLVTVSS
VL: not shown
B3: mAb14255 (antibody, V domains shown)
VH: QVQLQESGPGLVKPSETLSLTCTVSGGSISGYYWSWIRQPPGKGLDWIGYIYYRGNTNYNPSLKSRVTISVDTSNNQFSLKLSSVTAADTAVYYCARYGEGYGDASGYHFDYWGQGTLVTVSS
VL: QSALTQPASVSGSPGQSITISCTGTSSDVGSYNLVSWYQQHPGKAPKLMIYEDSKRPSGVANPFSGSKSGNTASLTISGLQAEDEADYYCSSYAGSSTWVFGGGTKLTVLG
B4: mAb14256 (antibody, V domains shown)
VH: QVQLQESGPGLVKPSETLSLTCTVSGGSISSHYWSWIRQPPGKGLEWIGYIYYSGSSNYNPSLKSRVTISVDTSKNQFSLKLNSVTAADTAVYYCARHYDILTGFDWFDPWGQGTLVTVSS
VL: QSVLTQPPSVSGAPGQRVTISCTGSSSNIGTHYDVHWYQQLPGTAPKLLIYGNSNRPSGVPDRFSGSKSGTSASLAITGLQAEDEADYYCQSFDNSLTAPYVFGTGTKVTVLG
B5: mAb14287 (antibody, V domains shown)
VH: QVQLVQSGAEVKKPGSSVKVSCKASGGTFSNNAISWVRQAPGQGLEWMGKIIPILGIGGDAQKFQGRFTITADKSTSTAYMELSSLRSEDTAVYYCANSGDSRPHAFDIWGQGTMVTVSS
VL: QSALTQPASVSGSPGQSITISCTGTSSDVGSYNLVSWYQQHPGKAPKLMIYEVSKRPSGVSNRFSGSKSGNTASLTISGLQAEDEADYYCSSYAGSRREVFGGGTKLTVLG
B6: mAb14288 (antibody, V domains shown)
VH: EVQLVESGGGLVQPGGSLRLSCAASGFTLSSYDMHWVRQVIGKGLEWVSTIGTSGDTYYPGSVKGRFTISRENAKNSLYLQMNSLRAGDTAVYYCARGGVPTTIWSGPYYYYMDVWGKGTTVTVSS
VL: QSVLTQPPSVSAAPGQKVTISCSGSSSNIGNNYVSWYQQLPGTAPKLLIYENNKRPSGIPDRFSGSKSGTSATLGITGLQTGDEADYYCGTWDSSLSAGQGVFGGGTKLTVLG
B7: mAb14290 (antibody, V domains shown)
VH: QVQLVQSGAEVKKPGSSVKVSCKASGGSFSNYAISWVRQAPGQGLEWMGGIIPFFGTTNYAQKFQGRLTITADESTSTFYMELSSLGSEDTAVYYCAAGYSSGWYPSWFDPWGQGTLVTVSS
VL: EIVLTQSPGTLSLSPGERATLSCRASQSVNNNYLAWYQQKPGQTPRLLIYGASSRATGIPDRFSGSGSGTDFTLTITRLEPEDFAVYHCQQYGRSPTTFGQGTRLEIKR
B8: mAb14291 (antibody, V domains shown)
VH: EVQLVQSGAEVKKPGSTMKISCKISGYIFSDYYMHWVQQAPGKGLEWMGLVDPEDGETRYAEKFQGRVTITADTSTDTAYMELSSLRFEDTAVYYCATVGGSSGPWGETLFDHWGQGSLVTVSS
VL: DIVMTQSPLSLPVTPGEPASISCRSSQSLLHSNGYNYINWYLQKPGQSPQLLMYLGSNRASGVPDRFSGSGSGTDSTLKISRVEAEDAGVYYCMQTRQTPYTFGQGTKLEIKR
B9: mAb14295 (antibody, V domains shown)
VH: QLQLQESGPGLVKPSETLSLTCTVSGGSISSSGHYWGWIRQSPGKGLDWIGSIYYSGSTYYNPSLKSRVTISVDTSKNQFSLKLNSVTAADTAVYFCARLEAYCSGDTCHYFYGLDVWGQGTTVTVSS
VL: DIQMTQSPSSLSASVGDRVTITCRASQSINTYLNWYQQKPGKAPNLLIDGASSLQSGVPSRFSGSGSGTDFILTISSLRPEDFATYYCQQSYSIPLTFGGGTRVEIKR
B10: mAb14312 (antibody, V domains shown)
VH: EVQLVESGGGLVQPGGSLRLSCAASGFTVSRSYMTWVRQAPGKGLEWVSVIFTGGRTDHADSVKGRFTISRHNSKNTLYLQMNSLRTEDTAVYYCARVAIVGATGAFDIWGQGTMVTVSS
VL: QSVLTQPPSVSGAPGQRVTISCTGSSSNIGAGDDVHWYQQLPGTAPKLLIYGNSNRPSGVPDRFSGSKSGTSASLAITGLQAEDEADYYCQSYDSSLSGSVVFGGGTKLTVLG
B11: mAb14314 (antibody, V domains shown)
VH: RVTLRESGPALVKPTQTLTLTCTFSGFSLYSSGMSVSWIRQPPGKALEWLARIDWDDDEYYSSFLKTRLTISKDISKNQVVLTMTNLDPVDTATYYCVRPRYSSNFGFEYWGQGTLVTVSS
VL: QSVLTQPPSVSAAPGQKVTISCSGSISNIGNNYVSWYQQLPGTAPKLLIYDNDKRPSGIPDRFSGSRSGTSATLGITGLQTGDEADYYCGTWDSSLTAYVFGTGTKVTVLG
B12: mAb15165 (antibody, V domains shown)
VH: EVQLVESGGGLVQPGGSLRLSCAASGFTVSSNYMSWVRQAPGKGLEWVSAIYSGDSTYYADSVKGRFTISKDNSKNTLYLQMNSLRGEDTAVYYCARLGGALQAYDGAFDYWGQGTLATVSS
VL: QSALTQPASVSGSPGQSITISCTGTSSDFGSYNLVSWYQQHPGKAPKLMIYEGNKRPSGVSIRFSGSKSGNTASLTISGLQAEDEADYYCSSYAGSSTWVFGGGTKLTVLG
B13: mAb15166 (antibody, V domains shown)
VH: EVQLVESGGGLVQPGGSLRLSCAASGFTVTSNYMSWVRQAPGKGLEWVSAIYSGESTYYADSVKGRFTISRDSSKNTLYLQMNSLRVEDTAVYYCASIHDYSNYVGGFDPWGQGTLVTVSS
VL: QSALTQPASVSGSPGQSITISCTGPSSDFGSYNLVSWYQQHPGKAPKLMIYEGTKRPSGVSNRFSGSKSGNTASLTISGLQAEDEADYYCSSYAGSSTWVFGGGTKLTVLG
B14: mAb15150 (antibody, V domains shown)
VH: EVQLVETGGGLIQPGGSLRLSCAAPGFIVSSNYMSWVRQAPGKGLEWVSLLYPGGSTYYADSVKGRFTISRDNSKNTLYLQMNSLRADDTAVYYCARVLPIVEDHFDYWGQGTLVTVSS
VL: DIQLTQSPSFLSASVGDRVTITCRASQGMSSYLAWYQKKPGKAPKLLIYGATILQSGVPSRFSGSGSGTEFTLTISSLQPEDFATYYCQQLNSDPLYMYTFGQGTKLEIKR

Target: full-length SARS-CoV-2 spike protein (Wuhan-Hu-1) on Jurkat/hCD20 cells (SARS-CoV-2, UniProt P0DTC2 14-1273)
Test: cell-based or functional assay

Going from B1 to B2, the “EC50 [M] of ADCP, macrophages, Jurkat/hCD20/SARS-CoV-2 spike cells” value (shortened to “EC50 [M] … Jurkat/hCD20/SARS-CoV-2 spike cells”) rises from 7.27e-11 M to 1.69e-10 M (2.3-fold).

Going from B3 to B6, the “EC50 [M] … Jurkat/hCD20/SARS-CoV-2 spike cells” value rises from 1.73e-11 M to 6.14e-10 M (35-fold).

B8 and B9 are within 1.5-fold of each other in “EC50 [M] … Jurkat/hCD20/SARS-CoV-2 spike cells” value: 4.12e-10 M for the first, 4.57e-10 M for the second.

Going from B10 to B11, the “EC50 [M] … Jurkat/hCD20/SARS-CoV-2 spike cells” value rises from 1.69e-11 M to 1.12e-09 M (66-fold).

First: B1
Second: B2
The “Max % ADCP, macrophages, Jurkat/hCD20/SARS-CoV-2 spike cells” value of the first is higher: 32.8% for the first, 32.6% for the second.

First: B3
Second: B4
The “Max % ADCP, macrophages, Jurkat/hCD20/SARS-CoV-2 spike cells” value of the first is higher: 21.2% for the first, 19.5% for the second.

Going from B5 to B6, the “Max % ADCP, macrophages, Jurkat/hCD20/SARS-CoV-2 spike cells” value falls from 33.2% to 25.9%.

Going from B7 to B8, the “Max % ADCP, macrophages, Jurkat/hCD20/SARS-CoV-2 spike cells” value rises from 16.7% to 32.9%.

Going from B9 to B10, the “Max % ADCP, macrophages, Jurkat/hCD20/SARS-CoV-2 spike cells” value falls from 35.3% to 27.8%.

For B11, the “Max % ADCP, macrophages, Jurkat/hCD20/SARS-CoV-2 spike cells” value was 16.7%.

Target: SARS-COV-2 RBD-MMH (SARS-COV-2 RBD extracellular domain with C-terminal myc-myc-hexahistidine tag) (SARS-CoV-2)
Test: SPR 37C, mAb captured, 90 nM RBD-MMH, dissociation pH 6.0

Compared with B12, B13 is lower in “RBD.mmh Bound at pH 7.4 (RU)” value: 115 RU for the first, 66 RU for the second.

With B14 the “RBD.mmh Bound at pH 7.4 (RU)” value was 89.7 RU.
